Where a chain is given by its changes, count along the chain named. Where two headings read alike, the source gives them in different places.
B1: mAb10985 (antibody, V domains shown)
VH: EVQLVESGGGLVQPGRSLRLSCAASGFTFDDYAMHWVRQAPGKGLEWVSGISWNRGSIGYADSVKGRFTISRDNAKNSLYLQMSSLRAEDTALYYCAKDGERWDSVVVPSARNGMDVWGQGTTVTVSS
VL: QSVLTQPPSVSGAPGQRVTISCTGSSSNIGAGYDVHWYQQLPGTAPKLLIYGNSNRPSGVPDRFSGSKSGTSASLAITGLQAEDEADYYCQSYDSSLSGSYVFGTGTKVTVLG
B2: mAb11004 (antibody, V domains shown)
VH: QVQLVESGGGVVQPGRSLRLSCVASGFTFSIYGMDWVRQAPGKGLEWVAVISYDGSNKYYADSVKGRFTISRDNSKNTLYLQMNSLRPEDTAVYYCAKDREAAADAFDIWGQGTMVTVSS
VL: DIQMTQSPSSVSASVGDRVTITCRASQGISSWLAWYQQKPGKAPKLLIYAASSLHSGVPSRFSGSGSGTDFTLTISSLQPEDFATYYCQQANSFRLTFGGGTKVEIKR
B3: mAb11004 (antibody, V domains shown)
VH: B2 VH
VL: B2 VL
B4: mAb11006 (antibody, V domains shown)
VH: EVQLVESGGGLVQPGGSLRLSCAASGFIVSRNYMSWVRQAPGKGLEWVSVIYSGGSTFYADSVKGRFTISRHNSKNTLYLQMNSLKAEDTAVYYCARELRGYFDYWGQGTLVTVSS
VL: DIQLTQSPSFLSASVGDRVTITCWASQGISSYLAWYQQKPGKAPKLLIYAASTLQSGVPSRFSGSGSGTEFTLTISSLQPEDFATYYCQLLNSYPYTFGQGTKLEIKR
B5: mAb11008 (antibody, V domains shown)
VH: EVQLVESGGGLVQPGGSLRLSCAASGFTVSSNYMTWVRQAPGKGLEWVSVIYSGGSTFYADSVKGRFTISRHNSENTLYLQMNSLRAEDTAVYYCARDLAAAGTDYWGQGALVTVSS
VL: B4 VL with E81D, L90H, P95L
B6: mAb11008 (antibody, V domains shown)
VH: B5 VH
VL: B4 VL with E81D, L90H, P95L
B7: mAb10966 (antibody, V domains shown)
VH: EVQLVESGGGLVQPGGSLRLSCAASGLTVSSNYMSWVRQAPGKGLEWVSVIYSGGSTFYADSVKGRFTISRDNSKNTLYLQMNSLRPEDTAVYYCAREGRIAATGYGMDVWGQGTTVTVSS
VL: DIQMTQSPSSLSASVGDRVTITCQASQDISNYLNWYQQKPGKAPKLLIYDASNLGTGVPSRFSGSRSGTDFTFTISSLQPEDIATYYCHQYDNLPQTFGPGTKVDIKR
B8: mAb10998 (antibody, V domains shown)
VH: EVQLVESGGGLVHPGGSLRLSCAASGLTVSSNYMSWVRQAPGKGLEWVSVIYSGGSTYYADSVKGRFTISRHNSKNTLFLQMNSLRAEDTAVYYCARDRPITGTTLDVWGQGTTVTVSS
VL: DIQMTQSPSSLFASVGDRVTITCRASQSISSYLNWYQQKPGKAPKLLIYAASSLQSGVPSRFSGSGSGTDFTLTISSLQPEDFAFYYCQQTYSTPPITFGQGTRLEIKR

Tests used:
[1] = molecular target: SARS-CoV-2 RBD extracellular domain expressed with a C-terminal myc-myc-hexahistidine tag (SARS-CoV-2); assay: SPR
[2] = molecular target: T1, SARS-CoV-2 Spike Protein (RBD)(R319-F541).hFc (SARS-CoV-2); assay: Luminex bead assay, supernatant
[3] = molecular target: T2, SARS-CoV-2 Spike Protein (RBD)(R319-F541).mFc (SARS-CoV-2); assay: Luminex bead assay, supernatant
[4] = molecular target: T2, SARS-CoV-2 Spike Protein …; assay: Luminex bead assay, supernatant; remark: listed apart in the source
[5] = molecular target: SARS-COV-2 RBD extracellular domain expressed with a C-terminal mouse IgG2a (SARS-COV-2 RBD-mFc) (SARS-CoV-2); assay: SPR
[6] = molecular target: T1, SARS-CoV-2 Spike Protein …; assay: Luminex bead assay, supernatant; remark: listed apart in the source
[7] = molecular target: SARS-CoV-2 spike protein (S-wt, Wuhan-Hu-1, NCBI Accession Number MN908947.3) on VSV-SARS-CoV-2-S … (SARS-CoV-2, UniProt P0DTC2 14-1273); assay: cell-based or functional assay

Row | Binder | Binding signal (MFI) [2] | Binding signal (MFI) [3] | Binding signal (MFI) [4] | further results
1 | B1 |  |  |  | t½ [1]: 8 min
2 | B2 | 4880 MFI | 4580 MFI | 4300 MFI | 
3 | B3 |  |  |  | t½ [5]: 3.01 h
4 | B4 | 3980 MFI | 2870 MFI | 1400 MFI | Binding signal (MFI) [6]: 3810 MFI
5 | B5 | 2570 MFI | 4260 MFI | 3050 MFI | 
6 | B6 |  |  |  | t½ [5]: 1 h
7 | B7 |  |  |  | neutralization potency IC50 [7]: 0.1 nM
8 | B8 | 1740 MFI | 2230 MFI | 2230 MFI | 
